Results filed as inconclusive are left out.
Tested on: B6C3F1 mice, colon carcinoma 38 s.c., T/C
Assay: NCI In Vivo Anticancer Drug Screen. Data for tumor model Colon Carcinoma 38 (subcutaneous) in B6C3F1 mice
Details: endpoint: median tumor weight (est.), schedule: Q07DX002 (ip), vehicle: saline, higher = larger tumour
Method: The antitumor activity of compounds was measured in mice bearing transplantable tumors. Survival or tumor size were measured and the results are expressed as the measurement made in the treated group (T) divided by the measurement made in the vehicle treated control group (C). The tumor model used in this assay is Colon Carcinoma 38 (subcutaneous) in B6C3F1 mice

## O=P1(N(CCCl)CCCl)NC(SCCS(=O)(=O)O)CCO1 (stereo not drawn)
dose: 50.0 mg/kg/injection
  T/C: 67 % of control
dose: 100.0 mg/kg/injection
  T/C: 14 % of control
dose: 200.0 mg/kg/injection
  T/C: 12 % of control
